# Sequence variants of PSTVd loop 15 after infection

Data from the supplement of Wu et al. 2024, doi:10.1371/journal.ppat.1012142.

PSTVd intermediate strain, loop 15: wild type GGAAACCGCUACUAC, pool pattern GGAAACCGNNNNNNC; upper and lower strand joined, each 5' to 3', the first 7 letters being the upper strand, closing pairs included.

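Three N. benthamiana plants were inoculated with the whole mutant pool. Samples came from the inoculated region at 5 days, the leaf margin at 10 and upper systemic leaves at 12.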

Values are reads per thousand in the sample; higher means more abundant, 0 means not found. Each site shows the three plants. "Pool" is the share in the plasmid pool used as inoculum, on the same scale. The inoculated region was read from the minus strand, the other sites from the plus strand. IR is the inoculated region, LM the leaf margin, Sys the systemic leaves. With 43,870-66,106 reads a sample, very low values are single reads. Wild type was 33.9 per thousand in the pool and the most common sequence in every sample (inoculated region 202, 200, 159; leaf margin 724, 746, 710; systemic leaves 856, 883, 880). The authors trace changes outside the varied positions to PCR and sequencing errors or to mutation in the plant; presence does not show that a variant is infectious alone.

sequence	pool	IR	LM	Sys
GGAAACCGCUUGAUC	0.256	0.131 / 0.177 / 0.0952	0 / 0 / 0	0.0161 / 0 / 0
GGAAACCGCUUGCAC	0.192	0.0819 / 0.0964 / 0.0190	0.0162 / 0 / 0.0801	0 / 0 / 0
GGAAACCGCUUGCCC	0.272	0.0819 / 0.0482 / 0.0762	0 / 0 / 0	0.0161 / 0 / 0
GGAAACCGCUUGCGC	0.272	0.131 / 0.112 / 0.133	0 / 0.0223 / 0.0200	0 / 0 / 0
GGAAACCGCUUGCUC	0.368	0.0983 / 0.0643 / 0.133	0 / 0.0223 / 0	0 / 0 / 0
GGAAACCGCUUGGAC	0.256	0.115 / 0.0643 / 0.0952	0 / 0.0223 / 0.0200	0 / 0 / 0
GGAAACCGCUUGGCC	0.144	0.131 / 0.0161 / 0.171	0 / 0 / 0	0 / 0 / 0
GGAAACCGCUUGGGC	0.320	0.131 / 0.0803 / 0.190	0 / 0 / 0.0200	0 / 0 / 0
GGAAACCGCUUGGUC	0.272	0.197 / 0.129 / 0.0571	0.0647 / 0 / 0.0200	0 / 0 / 0
GGAAACCGCUUGUAC	0.288	0.295 / 0.337 / 0.267	0.113 / 0.111 / 0.120	0.0644 / 0.0303 / 0.114
GGAAACCGCUUGUCC	0.224	0.0819 / 0.112 / 0.0952	0.0162 / 0 / 0	0 / 0 / 0
GGAAACCGCUUGUGC	0.224	0.360 / 0.273 / 0.438	0.0647 / 0.0891 / 0.0601	0.0322 / 0 / 0
GGAAACCGCUUGUUC	0.272	0.360 / 0.353 / 0.343	0.0970 / 0.111 / 0.0801	0 / 0.0756 / 0.0912
GGAAACCGCUUUAAC	0.144	0.0983 / 0.0643 / 0.114	0.0162 / 0.0223 / 0.0200	0 / 0 / 0
GGAAACCGCUUUACC	0.208	0.0983 / 0.0643 / 0.133	0 / 0.0223 / 0	0 / 0 / 0.0228
GGAAACCGCUUUAGC	0.272	0.0819 / 0.0643 / 0.0571	0 / 0.0223 / 0.0200	0 / 0 / 0
GGAAACCGCUUUAUC	0.256	0.311 / 0.225 / 0.228	0 / 0 / 0.0401	0 / 0 / 0
GGAAACCGCUUUCAC	0.304	0.147 / 0.0964 / 0.133	0 / 0 / 0	0 / 0 / 0
GGAAACCGCUUUCCC	0.304	0.147 / 0.0482 / 0.0762	0.0323 / 0 / 0.0200	0 / 0 / 0
GGAAACCGCUUUCGC	0.192	0.0983 / 0.112 / 0.171	0 / 0 / 0.0601	0 / 0 / 0
GGAAACCGCUUUCUC	0.208	0.115 / 0.145 / 0.190	0 / 0 / 0.0401	0.0161 / 0 / 0
GGAAACCGCUUUGAC	0.208	0.0491 / 0.129 / 0.0952	0.0162 / 0 / 0.0200	0 / 0 / 0
GGAAACCGCUUUGCC	0.128	0.115 / 0.0803 / 0.0190	0.0162 / 0 / 0	0.0322 / 0 / 0
GGAAACCGCUUUGGC	0.304	0.0655 / 0.0803 / 0.133	0 / 0 / 0.0200	0 / 0 / 0
GGAAACCGCUUUGUC	0.224	0.180 / 0.418 / 0.152	0 / 0 / 0.0200	0 / 0 / 0
GGAAACCGCUUUUAC	0.160	0.295 / 0.353 / 0.324	0.194 / 0.111 / 0.120	0.0322 / 0.0151 / 0.137
GGAAACCGCUUUUCC	0.224	0.0491 / 0.145 / 0.0762	0.0162 / 0 / 0.0200	0 / 0 / 0
GGAAACCGCUUUUGC	0.320	0.131 / 0.0964 / 0.114	0 / 0 / 0.0200	0 / 0 / 0
GGAAACCGCUUUUUC	0.368	0.180 / 0.0643 / 0.152	0 / 0 / 0.0200	0 / 0 / 0
GGAAACCGGAAAAAC	0.176	0.180 / 0.129 / 0.133	0 / 0.0223 / 0.0200	0.0161 / 0 / 0
GGAAACCGGAAAACC	0.272	0.115 / 0.112 / 0.0571	0.0323 / 0 / 0	0 / 0 / 0
GGAAACCGGAAAAGC	0.320	0.328 / 0.112 / 0.152	0 / 0.0223 / 0.0200	0 / 0 / 0.0228
GGAAACCGGAAAAUC	0.160	0.0655 / 0.0482 / 0.133	0.0162 / 0 / 0	0 / 0 / 0
GGAAACCGGAAACAC	0.192	0.131 / 0.0803 / 0.114	0.0323 / 0 / 0	0 / 0 / 0
GGAAACCGGAAACCC	0.240	0.197 / 0.145 / 0.0381	0 / 0 / 0.0200	0.0161 / 0 / 0
GGAAACCGGAAACGC	0.240	0.0164 / 0.112 / 0.0381	0 / 0.0223 / 0	0 / 0 / 0
GGAAACCGGAAACUC	0.224	0.0819 / 0.129 / 0.0571	0 / 0 / 0	0 / 0 / 0
GGAAACCGGAAAGAC	0.272	0.0983 / 0.0803 / 0.0952	0 / 0 / 0.0601	0.0161 / 0 / 0
GGAAACCGGAAAGCC	0.256	0.0983 / 0.0482 / 0.114	0.0162 / 0 / 0.0200	0 / 0 / 0
GGAAACCGGAAAGGC	0.144	0.0983 / 0.145 / 0.171	0 / 0 / 0.0200	0 / 0 / 0
GGAAACCGGAAAGUC	0.240	0.0491 / 0.0643 / 0.0381	0 / 0 / 0	0 / 0 / 0
GGAAACCGGAAAUAC	0.272	0.311 / 0.273 / 0.228	0.162 / 0.0668 / 0.200	0.0161 / 0.0756 / 0.114
GGAAACCGGAAAUCC	0.272	0.0819 / 0.0964 / 0.0381	0.0162 / 0.0445 / 0	0 / 0 / 0
GGAAACCGGAAAUGC	0.288	0.0491 / 0.0161 / 0.0762	0 / 0 / 0	0 / 0 / 0
GGAAACCGGAAAUUC	0.400	0.442 / 0.337 / 0.476	0.0970 / 0.0668 / 0.140	0.0644 / 0 / 0
GGAAACCGGAACAAC	0.224	0.262 / 0.0964 / 0.133	0.0162 / 0 / 0	0 / 0 / 0
GGAAACCGGAACACC	0.240	0.115 / 0.0964 / 0.114	0 / 0 / 0.0200	0 / 0 / 0

2 of these entries, quoted again:

sequence	pool	IR	LM	Sys
GGAAACCGCUUUAGC	0.272	0.0819 / 0.0643 / 0.0571	0 / 0.0223 / 0.0200	0 / 0 / 0
GGAAACCGCUUGCGC	0.272	0.131 / 0.112 / 0.133	0 / 0.0223 / 0.0200	0 / 0 / 0